Pooled drug test results. Numbers come from NIAID ChemDB, via PubChem.

Shared fields: enzyme or target tests

An empty or dashed field is not shown. Neighbouring rows are from separate reports. Percent inhibition refers to the dose given; in toxicity tests it is the harm to the cells. ICn: concentration for n% inhibition. Two numbers with a dash give a range or band.

SMILES,tested at,strain,endpoint,read by,protein,agent,result
COc1ccc(CCC2(C3CCCC3)CC(O)=C(Sc3nc4nc(C)cc(C)n4n3)C(=O)O2)cc1,-,-,IC50,-,Nonstructural protein 5B,Hepatitis C virus,<1 µM
C=C[C@@H]1C[C@]1(NC(=O)[C@@H]1C[C@@H](Oc2cc(-c3ccccc3)nc3cc(OC)ccc23)CN1C(=O)[C@@H](NC(=O)OC(C)(C)C)C(C)(C)C)C(=O)O,-,BMS,IC50,-,NS3/NS4A protease,Hepatitis C virus,<0.5 µM
C=CCC(C=O)NC(=O)[C@H](CC1CCCCC1)NC(=O)[C@H](CCC(=O)O)NC(=O)[C@@H](NC(=O)[C@H](CCC(=O)O)NC(=O)[C@H](CC(=O)O)NC(C)=O)C(c1ccccc1)c1ccccc1,-,-,IC50,-,NS3/NS4A protease,Hepatitis C virus,0.007 µM
CC(C)N(C(=O)c1ccc(Cl)cc1Cl)c1cc(-c2cc3ccccc3o2)sc1C(=O)O,-,-,IC50,-,NS3 ATPase,Hepatitis C virus,<5 µM
C[C@@]1(O)[C@H](O)[C@@H](COP(=O)(O)OP(=O)(O)OP(=O)(O)O)O[C@H]1c1ccc2c(N)ncnn12,-,GT-1b Con1,IC50,nucleotide incorporation,Nonstructural protein 5B,Hepatitis C virus,0.37 µM
O=C(O)c1sc(-c2ccccc2)cc1N(Cc1ccc(-c2cccc(C(F)(F)F)c2)o1)C(=O)c1ccc(Cl)cc1Cl,-,-,IC50,-,NS3 ATPase,Hepatitis C virus,<5 µM
C=C[C@H]1CC1(NC(=O)[C@@H]1C[C@@H](Oc2cc(-c3csc(N)n3)nc3ccccc23)CN1C(=O)[C@@H](NC(=O)OC(C)(C)C)C(C)(C)C)C(=O)O,-,-,IC50,-,HCV NS3/NS4A protease,Hepatitis C virus,0.087 µM
O=C1c2ccccc2S(=O)(=O)c2cc(-c3nc(C(=O)O)c(O)c(=O)[nH]3)ccc21,-,-,IC50,-,HCV polymerase,Hepatitis C virus,<100 µM
CC(O)(P(=O)(O)O)P(=O)(O)O,-,-,IC50,-,DNA polymerase,Hepatitis B virus,>500 µM
O=C(/C=C/C(=O)Nc1ccc(-c2nc3ccccc3[nH]2)cc1)Nc1ccc(-c2nc3ccccc3[nH]2)cc1,-,-,IC50,-,Nonstructural protein 3 NTPase/helicase,Hepatitis C virus,<25 µg/mL
C=C[C@@H]1C[C@]1(NC(=O)[C@@H]1C[C@@H](Oc2cc(-c3ccccc3)nc3cc(OC)ccc23)CN1C(=O)[C@@H](NC(=O)OC(C)(C)C)C(C)(C)C)C(=O)NS(=O)(=O)c1ccc(-c2ccccc2)cc1,-,BMS,IC50,-,NS3/NS4A protease,Hepatitis C virus,<0.5 µM
CC[C@H](NC(=O)[C@@H](NC(=O)[C@@H](NC(=O)[C@H](CC(=O)O)NC(=O)[C@H](CCC(=O)O)NC(C)=O)C(C)C)C(C)C)C(=O)N[C@H](C=O)C(C)C,-,-,IC50,-,NS3/NS4A protease,Hepatitis C virus,50 µM
CC(C)Oc1ccc(CCC2(C3CCCC3)CC(=O)CC(=O)O2)cc1Cl,-,-,IC50,-,Nonstructural protein 5B,Hepatitis C virus,<1 µM
CC(NC(=O)Nc1cccc(-c2nc(C(=O)O)c(O)c(=O)[nH]2)c1)c1ccc2c(c1)OCCO2,-,-,IC50,-,HCV polymerase,Hepatitis C virus,<100 µM
CC(C)c1ccc(S(=O)(=O)Nc2cc(-c3ccccc3)sc2C(=O)O)cc1,-,-,IC50,-,NS3 ATPase,Hepatitis C virus,5–20 µM
CC(=O)c1cccc(CCC2(C3CCCC3)CC(=O)CC(=O)O2)c1,-,-,IC50,-,Nonstructural protein 5B,Hepatitis C virus,1–10 µM
C=C[C@H]1CC1(NC(=O)[C@@H]1C[C@@H](Oc2cc(-c3ccccc3)nc3cc(OC)ccc23)CN1C(=O)[C@@H](NC(=O)[C@@H](CC(=O)OCC(C)(C)C)C1CCCCC1)C(C)(C)C)C(=O)O,-,-,IC50,-,HCV NS3/NS4A protease,Hepatitis C virus,0.042 µM
COc1ccc(CCC2(C3CCCC3)CC(O)=C(Sc3ccccc3)C(=O)O2)cc1Cl,-,-,IC50,-,Nonstructural protein 5B,Hepatitis C virus,<1 µM
CCN(C(=O)CCC1CCCC1)c1cc(-c2ccccc2)sc1C(=O)O,-,-,IC50,-,NS3 ATPase,Hepatitis C virus,<5 µM
COc1cc(OC)c(CCC2(C3CCCC3)CC(O)=C(Cl)C(=O)O2)cc1Cl,-,-,IC50,-,Nonstructural protein 5B,Hepatitis C virus,<1 µM
Cc1ccc([N+](=O)[O-])c(COC(=O)Nc2ccsc2-c2nc(C(=O)O)c(O)c(=O)[nH]2)c1,-,-,IC50,-,HCV polymerase,Hepatitis C virus,<25 µM
C=C[C@H]1CC1(NC(=O)[C@@H]1C[C@@H](Oc2cc(C(F)(F)F)nc3c(C(F)(F)F)cccc23)CN1C(=O)[C@@H](Nc1ccc(C(=O)OC(C)(C)C)cc1)C(C)(C)C)C(=O)O,-,-,IC50,-,HCV NS3/NS4A protease,Hepatitis C virus,1.95 µM
CC(=O)N[C@@H](CC(=O)O)C(=O)N[C@H](CCC(=O)O)C(=O)N[C@H](C(=O)N[C@H](C(=O)N1C[C@H](OCc2cccc3ccccc23)C[C@H]1C(=O)NC1(C(=O)O)CC1)C(C)C)C1CCCCC1,-,-,IC50,-,Nonstructural protein 3 protease,Hepatitis C virus,0.013 µM
CC1CCC(C(=O)N(c2cc(-c3ccccc3)sc2C(=O)O)C(C)C)C1,-,-,IC50,-,NS3 ATPase,Hepatitis C virus,5–20 µM
O=C(CCCCC(=O)Nc1ccc(-c2nc3ccccc3[nH]2)cc1)Nc1ccc(-c2nc3ccccc3[nH]2)cc1,-,-,IC50,-,Nonstructural protein 3 NTPase/helicase,Hepatitis C virus,<25 µg/mL
O=C(P(=O)(O)O)P(=O)(O)O,-,-,IC50,-,DNA polymerase,Hepatitis B virus,~500 µM
O=C1CC(=O)OC(CCc2ccc(OC3CCCC3)c(F)c2)(C2CCCC2)C1,-,-,IC50,-,Nonstructural protein 5B,Hepatitis C virus,1–10 µM
O=C(CCC(=O)Nc1ccc(-c2nc3ccccc3s2)cc1)Nc1ccc(-c2nc3ccccc3s2)cc1,-,-,IC50,-,Nonstructural protein 3 NTPase/helicase,Hepatitis C virus,>25 µg/mL
CC(=O)N[C@@H](CC(=O)O)C(=O)N[C@@H](CCC(=O)O)C(=O)N[C@@H](CC(C)C)C(=O)N[C@@H](CCC(=O)O)C(=O)N[C@@H](CC1CCCCC1)C(=O)N[C@@H](CS)C(=O)O,-,-,IC50,-,NS3/NS4A protease,Hepatitis C virus,0.14 µM
C=C[C@@H]1C[C@]1(NC(=O)[C@@H]1C[C@@H](Oc2cc(-c3ccccc3)nc3cc(OC)ccc23)CN1C(=O)[C@@H](NC(=O)OC1CCOC1)C(C)(C)C)C(=O)NS(=O)(=O)C1CC1,-,BMS,IC50,-,NS3/NS4A protease,Hepatitis C virus,<0.05 µM
C=C[C@H]1CC1(NC(=O)[C@@H]1C[C@@H](Oc2cc(-c3ccccn3)nc(-c3ccccn3)c2)CN1C(=O)[C@@H](Nc1ccc(C(=O)OC(C)(C)C)cc1)C(C)(C)C)C(=O)O,-,-,IC50,-,HCV NS3/NS4A protease,Hepatitis C virus,0.36 µM
O=C(Nc1ccsc1-c1nc(C(=O)O)c(O)c(=O)[nH]1)OCC1CCOC1,-,-,IC50,-,HCV polymerase,Hepatitis C virus,<25 µM
CC(=O)N[C@@H](CC(=O)O)C(=O)N[C@@H](CCC(=O)O)C(=O)N[C@H](C(=O)N[C@@H](CCC(=O)O)C(=O)N[C@H](C(=O)N[C@@H](CC(F)F)C(=O)O)C1CCCCC1)C(c1ccccc1)c1ccccc1,-,-,IC50,-,NS3/NS4A protease,Hepatitis C virus,0.03 µM
O=c1cc(-c2ccccc2)oc2ccc(O)cc12,20 µM,J4,inhibition,SYBR Green,Replicase complex,Hepatitis C virus,18.5%
Cc1nn(C)c(Cl)c1S(=O)(=O)Nc1cc(-c2ccccc2)sc1C(=O)O,-,-,IC50,-,NS3 ATPase,Hepatitis C virus,5–20 µM
CC[C@H](C)[C@H](NC(=O)OC(C)(C)C)C(=O)N1C[C@H](Oc2cc(-c3ccccc3)nc3cc(OC)ccc23)C[C@H]1C(=O)NC1(C(=O)NS(=O)(=O)C2CC2)CC12CCC2,-,BMS,IC50,-,NS3/NS4A protease,Hepatitis C virus,<5 µM
CS(=O)(=O)c1ccc2nc(N)sc2c1,-,-,IC50,-,Nonstructural protein 3 NTPase/helicase,Hepatitis C virus,>25 µg/mL
C=CC1CC1(NC(=O)[C@@H]1C[C@@H](Oc2cc(-c3ccccc3)nc3cc(OC)ccc23)CN1C(=O)[C@H](CC1CCCCC1)NC(=O)OC(C)(C)C)C(=O)NS(=O)(=O)C1CC1,-,BMS,IC50,-,NS3/NS4A protease,Hepatitis C virus,<0.5 µM
C=CCC(C=O)NC(=O)[C@H](CCC(=O)O)NC(=O)[C@H](CCC(=O)O)NC(=O)[C@H](CCSC)NC(=O)[C@H](CCC(=O)O)NC(=O)[C@H](CC(=O)O)NC(C)=O,-,-,IC50,-,NS3/NS4A protease,Hepatitis C virus,1.8 µM
Nc1nccs1,-,-,IC50,-,Nonstructural protein 3 NTPase/helicase,Hepatitis C virus,>25 µg/mL
CC[C@H](C)[C@H](NC(=O)[C@H](CC(C)C)NC(=O)[C@H](CCC(=O)O)NC(=O)[C@H](CC(=O)O)NC(=O)O)C(=O)N[C@@H](CC1CCCCC1)C(=O)N[C@@H](CS)C(=O)O,-,-,IC50,-,NS3/NS4A protease,Hepatitis C virus,0.06 µM
O=C(O)c1nc(-c2cccc(NS(=O)(=O)c3cccs3)c2)[nH]c(=O)c1O,-,-,IC50,-,HCV polymerase,Hepatitis C virus,<100 µM
O=c1cc(-c2ccccc2)oc2cccc(O)c12,20 µM,J4,inhibition,SYBR Green,Replicase complex,Hepatitis C virus,14.5%
O=C(CCC(=O)Nc1nc2ccccc2[nH]1)Nc1nc2ccccc2[nH]1,-,-,IC50,-,Nonstructural protein 3 NTPase/helicase,Hepatitis C virus,>25 µg/mL
O=C(O)c1nc(-c2ccsc2CO)[nH]c(=O)c1O,-,-,IC50,-,HCV polymerase,Hepatitis C virus,<25 µM
CC(O)(C(=O)O)P(=O)(O)O,-,-,IC50,-,DNA polymerase,Hepatitis B virus,>500 µM
CC[C@H](C)[C@H](NC(=O)[C@H](CC(C)C)NC(=O)[C@@H](CCC(=O)O)NC(=O)[C@H](CC(=O)O)NC(=O)O)C(=O)N[C@@H](CC1CCCCC1)C(=O)N[C@@H](CS)C(=O)O,-,-,IC50,-,NS3/NS4A protease,Hepatitis C virus,0.01 µM
O=C(O)CCP(=O)(O)O,-,-,IC50,-,DNA polymerase,Hepatitis B virus,>500 µM
CC1CCC(C(=O)N(c2cc(-c3ccc(-c4ccc(Cl)cc4)cc3)sc2C(=O)O)C(C)C)CC1,-,-,IC50,-,NS3 ATPase,Hepatitis C virus,<5 µM
CC(C(=O)O)P(=O)(O)O,-,-,IC50,-,DNA polymerase,Hepatitis B virus,>500 µM
C=C[C@@H]1C[C@]1(NC(=O)[C@@H]1C[C@@H](Oc2nccc3ccc(Br)cc23)CN1C(C)=O)C(=O)NS(=O)(=O)C1CC1,-,1b R155K,IC50,FRET,Nonstructural protein 3/4A,Hepatitis C virus,>3 µM
COc1ccc(C(Cc2ccccc2)NC(=O)Nc2cccc(-c3nc(C(=O)O)c(O)c(=O)[nH]3)c2)cc1OC,-,-,IC50,-,HCV polymerase,Hepatitis C virus,<100 µM
CC1CCC(C(=O)N(c2cc(-c3ccc(C#N)cc3)sc2C(=O)O)C(C)C)CC1,-,-,IC50,-,NS3 ATPase,Hepatitis C virus,<5 µM
O=P(O)(O)P(=O)(O)O,-,-,IC50,-,DNA polymerase,Hepatitis B virus,~500 µM
Cc1ccccc1S(=O)(=O)Nc1cc(Br)sc1C(=O)O,-,-,IC50,-,NS3 ATPase,Hepatitis C virus,5–20 µM
O=C1CC(=O)OC(CCc2ccc(C3OCCO3)c(F)c2)(C2CCCC2)C1,-,-,IC50,-,Nonstructural protein 5B,Hepatitis C virus,1–10 µM
O=C(CCCCCCCC(=O)Nc1ccc(-c2nc3ccccc3[nH]2)cc1)Nc1ccc(-c2nc3ccccc3[nH]2)cc1,-,-,IC50,-,Nonstructural protein 3 NTPase/helicase,Hepatitis C virus,>25 µg/mL
O=C(NCc1ccccc1)Nc1cscc1-c1nc(C(=O)O)c(O)c(=O)[nH]1,-,-,IC50,-,HCV polymerase,Hepatitis C virus,<25 µM
O=C(NC1CCCCC1)N[C@H](C(=O)N1C[C@H](OCc2cccc3ccccc23)C[C@H]1C(=O)NC1(C(=O)O)CC1)C1CCCCC1,-,-,IC50,-,HCV NS3/NS4A protease,Hepatitis C virus,47 µM
O=C(/C=C/C(=O)Nc1ccc(-c2nc3ccccc3s2)cc1)Nc1ccc(-c2nc3ccccc3s2)cc1,-,-,IC50,-,Nonstructural protein 3 NTPase/helicase,Hepatitis C virus,>25 µg/mL
O=C(N[C@H](C(=O)N1C[C@H](OCc2cccc3ccccc23)C[C@H]1C(=O)NC1(C(=O)O)CC1)C1CCCCC1)C(CC1CCCCC1)CC1CCCCC1,-,-,IC50,-,HCV NS3/NS4A protease,Hepatitis C virus,29.5 µM
C[C@@H]1O[C@@H](OC[C@H]2O[C@@H](Oc3c(-c4ccc(O)c(O)c4)oc4cc(O)cc(O)c4c3=O)[C@H](O)[C@@H](O)[C@@H]2O)[C@H](O)[C@H](O)[C@H]1O,20 µM,J4,inhibition,SYBR Green,Replicase complex,Hepatitis C virus,30.3%

3 of the rows above, restated:

| SMILES | tested at | strain | endpoint | read by | protein | agent | result |
|---|---|---|---|---|---|---|---|
| CC(=O)N[C@@H](CC(=O)O)C(=O)N[C@@H](CCC(=O)O)C(=O)N[C@H](C(=O)N[C@@H](CCC(=O)O)C(=O)N[C@H](C(=O)N[C@@H](CC(F)F)C(=O)O)C1CCCCC1)C(c1ccccc1)c1ccccc1 | - | - | IC50 | - | NS3/NS4A protease | Hepatitis C virus | 0.03 µM |
| Cc1ccccc1S(=O)(=O)Nc1cc(Br)sc1C(=O)O | - | - | IC50 | - | NS3 ATPase | Hepatitis C virus | 5–20 µM |
| CC(O)(C(=O)O)P(=O)(O)O | - | - | IC50 | - | DNA polymerase | Hepatitis B virus | >500 µM |